Anti-infective test results gathered from many reports (values: NIAID ChemDB through PubChem).

Shared fields: whole-cell or culture tests

Conditions beyond the fields shown may differ between rows.

Oc1ccccc1N=Cc1ccc(F)cc1 ; agent: Cryptococcus neoformans ; strain or isolate: 5396 ; endpoint: MIC99 ; result: 8 µg/mL
Cn1ncc2c1C(=O)c1cccc(Br)c1C2=O ; agent: Cryptosporidium parvum ; endpoint: inhibition ; tested at: 10 µM ; result: <10%
O=C(CC(=O)Nc1cc(C(F)(F)F)cc(C(F)(F)F)c1)Nc1cc(C(F)(F)F)cc(C(F)(F)F)c1 ; agent: Escherichia coli ; strain or isolate: ES142 ; endpoint: MIC ; result: >300 µM
O=C1c2cccc(O)c2C(=O)c2cn[nH]c21 ; agent: Cryptosporidium parvum ; endpoint: inhibition ; tested at: 25 µM ; result: <10%
CCC(C)CN=C(N)c1ccc(N2CCN(c3ccccc3)CC2)cc1 ; agent: Pneumocystis carinii ; endpoint: inhibition ; tested at: 0.1 µg/mL ; result: 0%
Nc1nc2c(ncn2COC(CO)CO)c(=O)[nH]1 ; agent: Human cytomegalovirus ; strain or isolate: C9003 ; cell line: MRC-5 ; method: hybridisation ; endpoint: EC50 ; result: 1.1 µM
Oc1ccccc1C=Nc1ccccc1O ; agent: Cryptococcus gattii ; strain or isolate: LMM 818 ; endpoint: MIC99 ; result: 8 µg/mL
CCCCCCCCCCCCOC(=O)[C@]1(O)C[C@@H](O)[C@@H](O)[C@H](OC(=O)/C=C/c2ccc(O)c(O)c2)C1 ; agent: Aspergillus flavus ; strain or isolate: AMP 9 ; method: absorbance ; endpoint: MIC80 ; result: >1500 µg/mL
CC(=O)N1C(=O)[C@@H](Cc2ccccc2)NC1=S ; agent: HIV-2 ; cell line: MT-4 ; method: cytopathic effect / XTT ; endpoint: inhibition ; tested at: 100 µg/mL ; result: 100%
Nc1nc2c(ncn2COCCO)c(=O)[nH]1 ; agent: Herpes simplex virus 2 ; strain or isolate: V60780 (acyclovir-resistant) ; cell line: HFF ; method: cytopathic effect ; endpoint: EC50 ; result: >50 µg/mL
CCCCCCN=C(N)c1ccc(N2CCN(c3ccccc3)CC2)cc1 ; agent: Pneumocystis carinii ; endpoint: inhibition ; tested at: 10 µg/mL ; result: 96%
O=C(NNC(=O)Nc1cc(C(F)(F)F)cc(C(F)(F)F)c1)Nc1cc(C(F)(F)F)cc(C(F)(F)F)c1 ; agent: Escherichia coli ; strain or isolate: ES142 ; endpoint: MIC ; result: 300 µM
CC(=O)N[C@H]1[C@H]([C@H](O)[C@H](O)CO)OC(C(=O)O)=C[C@@H]1N=C(N)N ; agent: Influenza A virus ; strain or isolate: H1N1 A/Beijing/262/95 ; cell line: MDCK ; endpoint: EC50 ; result: 2.6 µM
CN[C@H]1CC[C@@H](c2ccc(Cl)c(Cl)c2)c2ccccc21 ; agent: Cryptococcus neoformans ; strain or isolate: JEC21 ; method: broth dilution ; endpoint: MIC90 ; result: 2 µg/mL
O=C1[C@@H](Cc2ccccc2)NC(=S)N1c1ccccc1 ; agent: HIV-2 ; cell line: MT-4 ; method: cytopathic effect / XTT ; endpoint: inhibition ; tested at: 0.1 µg/mL ; result: 24%
Cc1nc(NCCCCNc2ccnc3cc(Cl)ccc23)nc(-c2ccccc2[N+](=O)[O-])c1C(=O)OC(C)C ; agent: Cryptococcus gattii ; strain or isolate: LMM 818 ; endpoint: MIC99 ; result: 11.3 µg/mL
CCCCN=C(N)c1ccc(N2CCN(c3ccccc3)CC2)cc1 ; agent: Pneumocystis carinii ; endpoint: inhibition ; tested at: 50 µg/mL ; result: 94%
CC(C)(O)c1cn(-c2cccc3ccccc23)nn1 ; agent: Candida albicans ; strain or isolate: URM 4385 ; method: broth dilution ; endpoint: inhibition ; tested at: 2048 µg/mL ; result: 0%
O=c1[nH]c(=O)n([C@H]2C[C@H](O)[C@@H](CO)O2)cc1Br ; agent: Murine polyoma virus ; cell line: ME ; method: hybridisation ; endpoint: EC50 ; result: 0.05–0.25 µg/mL
Cc1nc(NC(=O)NCCc2ccccc2)sc1C ; agent: HIV-2 ; cell line: MT-4 ; method: cytopathic effect / XTT ; endpoint: inhibition ; tested at: 10 µg/mL ; result: 100%
C=CCc1ccc(OC)c(OC)c1 ; agent: Candida glabrata ; strain or isolate: 2994 ; method: turbidity ; endpoint: MIC90 ; result: 340 µg/mL
CO/N=C1\CN(c2nc3c(cc2F)c(=O)c(C(=O)O)cn3C2CC2)CC1CN ; agent: Streptococcus pneumoniae ; strain or isolate: 37 isolates (minocycline-resistant) ; endpoint: MIC90 ; result: 0.063 µg/mL
CCO/N=C/c1ccc(OCCC2CCN(c3ccc(Cl)nn3)CC2)cc1 ; agent: Rhinovirus ; strain or isolate: FO 1-3774 (ICAM-1 receptor group 54) ; cell line: KB ; method: neutral red ; endpoint: EC50 ; result: 0.003 µM
O=C(N[C@@H](C(=O)N1CCC[C@H]1c1ncc(-c2ccc(-c3ccc(-c4cnc([C@@H]5CCCN5C(=O)[C@H](NC(=O)C5CC5)c5ccccc5)s4)cc3)cc2)s1)c1ccccc1)C1CC1 ; agent: Hepatitis C virus ; strain or isolate: genotype 1b ; mutations: Y93H ; cell line: Huh7.5 ; method: luciferase / reporter gene ; endpoint: fold resistance ; result: 939
CN1C(=O)[C@@H](Cc2ccccc2)NC1=S ; agent: HIV-2 ; cell line: MT-4 ; method: cytopathic effect / XTT ; endpoint: inhibition ; tested at: 100 µg/mL ; result: 100%
CC(C)N=C(N)c1ccc2nc(-c3ccc4c(c3)Cc3cc(-c5nc6ccc(C(N)=NC(C)C)cc6[nH]5)ccc3-4)[nH]c2c1 ; agent: Candida albicans ; strain or isolate: Isolate CA783 ; endpoint: MFC ; result: 3.12 µg/mL
CC(C)CCN=C(N)c1ccc(N2CCN(c3ccccc3)CC2)cc1 ; agent: Pneumocystis carinii ; endpoint: inhibition ; tested at: 0.1 µg/mL ; result: 0%
CC(N)CC(C(=O)Nc1cc(C(F)(F)F)cc(C(F)(F)F)c1)C(=O)Nc1cc(C(F)(F)F)cc(C(F)(F)F)c1 ; agent: Klebsiella pneumoniae ; strain or isolate: KL21 ; endpoint: MIC ; result: >300 µM
CCOc1ccccc1CCNC(=S)Nc1nccs1 ; agent: HIV-2 ; cell line: MT-4 ; method: cytopathic effect / XTT ; endpoint: inhibition ; tested at: 100 µg/mL ; result: 100%
N#Cc1cc([N+](=O)[O-])ccc1Oc1ccc(Cl)c(Cl)c1 ; agent: Coxsackie virus ; strain or isolate: TYPE A21 ; cell line: VERO ; endpoint: inhibition ; tested at: 0.097 µg/mL ; result: 71%
O=c1oc2ccc(F)cc2c(=S)n1-c1ccc(C(F)(F)F)cc1 ; agent: Mycobacterium kansasii ; strain or isolate: 6509/96 ; conditions: 21 d ; endpoint: MIC ; result: 8 µM
CC(=O)N[C@H]1C[C@@H](n2cnc3c(N)ncnc32)[C@H](O)[C@@H]1O ; agent: Punta Toro virus ; cell line: HFF ; endpoint: EC50 ; result: >100 µg/mL
CCOC(=O)c1c(C)nc(NCCCCNc2ccnc3cc(Cl)ccc23)nc1-c1ccc(F)cc1 ; agent: Cryptococcus gattii ; strain or isolate: 196L/03 ; endpoint: MIC99 ; result: 8 µg/mL
Cc1cc(O)c2c(c1)C(=O)c1c(cnn1C)C2=O ; agent: Cryptosporidium parvum ; endpoint: inhibition ; tested at: 50 µM ; result: 45%
O=C(NCCc1ccccc1)Nc1nc2ccc(F)cc2s1 ; agent: HIV-2 ; cell line: MT-4 ; method: cytopathic effect / XTT ; endpoint: inhibition ; tested at: 1 µg/mL ; result: 40%
CO[C@H]1/C=C/O[C@@]2(C)Oc3c(C)c(O)c4c(O)c(c5c(c4c3C2=O)NC2(CCN(CC(C)C)CC2)N=5)=NC(=O)/C(C)=C\C=C\[C@H](C)[C@H](O)[C@@H](C)[C@@H](O)[C@@H](C)[C@H](OC(C)=O)[C@@H]1C ; agent: Mycobacterium avium intracellulare ; strain or isolate: 21 strains ; endpoint: MIC90 ; result: 1 µg/mL
O=c1oc2ccc(Br)cc2c(=S)n1-c1ccc(Br)cc1 ; agent: Mycobacterium kansasii ; strain or isolate: 6509/96 ; conditions: 14 d ; endpoint: MIC ; result: 4 µM
C[C@@H](c1ncncc1F)[C@](O)(Cn1cncn1)c1ccc(F)cc1F ; agent: Cryptococcus gattii ; strain or isolate: CBS 10865 ; method: broth dilution ; endpoint: MIC ; result: 0.008 µg/mL
COC(=O)N[C@H](C(=O)N1CCC[C@H]1c1ncc(-c2ccc(-c3ccc(-c4cnc([C@@H]5CCCN5C(=O)[C@@H](NC(=O)OC)C(C)C)[nH]4)cc3)cc2)[nH]1)C(C)C ; agent: Hepatitis C virus ; strain or isolate: 1b ; mutations: L31V ; cell line: ET ; method: luciferase ; endpoint: EC50 ; result: 0.000098 µM
CC(C)Nc1nc2cc(Cl)c(Cl)cc2n1[C@H]1O[C@@H](CO)[C@H](O)[C@@H]1O ; agent: Human cytomegalovirus ; strain or isolate: AD169 ; cell line: MRC-5 ; method: hybridisation ; endpoint: EC50 ; result: 0.12 µM
NC(=NCc1ccc(F)cc1)c1ccc(N2CCN(c3ccccc3)CC2)cc1 ; agent: Pneumocystis carinii ; endpoint: inhibition ; tested at: 10 µg/mL ; result: 70%
NC[C@@H]1O[C@H](O[C@H]2[C@@H](O)[C@H](O[C@@H]3[C@@H](O)[C@H](N)C[C@H](N)[C@H]3O[C@H]3O[C@H](CO)[C@@H](O)[C@H](O)[C@H]3N)O[C@@H]2CO)[C@H](N)[C@@H](O)[C@@H]1O ; agent: Cryptosporidium parvum ; endpoint: inhibition ; tested at: 100 µM ; result: 40%
O=[N+]([O-])c1ccc(C=Nc2ccccc2O)cc1 ; agent: Cryptococcus gattii ; strain or isolate: 23/10993 ; endpoint: MIC99 ; result: 8 µg/mL
O=C(Nc1cccc(C2=NCCN2)c1)Nc1cccc(C2=NCCN2)c1 ; agent: Klebsiella pneumoniae ; strain or isolate: KL21 ; endpoint: MIC ; result: 300 µM
FC(F)(F)c1ccc(-n2c(=S)oc3ccc(Cl)cc3c2=S)cc1 ; agent: Mycobacterium kansasii ; strain or isolate: 6509/96 ; conditions: 21 d ; endpoint: MIC ; result: 16 µM
CC(C)(O)c1cn(-c2ccccc2)nn1 ; agent: Candida parapsilosis ; strain or isolate: URM 4261 ; method: broth dilution ; endpoint: inhibition ; tested at: 2048 µg/mL ; result: 0%
Cn1ncc2c1C(=O)c1c(Cl)ccc(O)c1C2=O ; agent: Cryptosporidium parvum ; endpoint: inhibition ; tested at: 25 µM ; result: 100%
COc1ccc2oc(=S)n(-c3ccc(Cl)cc3)c(=S)c2c1 ; agent: Mycobacterium kansasii ; strain or isolate: 6509/96 ; conditions: 21 d ; endpoint: MIC ; result: 32 µM
O=C1[C@@H](Cc2ccccc2)NC(=S)N1Cc1ccccc1 ; agent: HIV-2 ; cell line: MT-4 ; method: cytopathic effect / XTT ; endpoint: inhibition ; tested at: 100 µg/mL ; result: 58%
CC(C)(O)c1cn(-c2ccc3ccccc3c2)nn1 ; agent: Candida parapsilosis ; strain or isolate: URM 4804 ; method: broth dilution ; endpoint: inhibition ; tested at: 2048 µg/mL ; result: 0%
OC[C@H]1O[C@@H](n2c(Cl)nc3cc(Cl)c(Cl)cc32)[C@H](O)[C@@H]1O ; agent: Human cytomegalovirus ; strain or isolate: TOWNE ; method: plaque count ; endpoint: EC50 ; result: 2.4 µM
Cn1cc(C(=O)NCc2ccc(Cl)cc2)c(=O)c2cc(CN3CCOCC3)ccc21 ; agent: Varicella zoster virus ; strain or isolate: SM varicella isolate ; cell line: HFF ; method: plaque count ; endpoint: inhibition ; tested at: 2.4 µM ; result: 90%
CCOC(=O)c1cnc(NCCCCNc2ccnc3cc(Cl)ccc23)nc1C ; agent: Cryptococcus gattii ; strain or isolate: 135L/03 ; endpoint: MIC99 ; result: 8 µg/mL
CC(C)(O)c1cn(-c2ccc([N+](=O)[O-])cc2)nn1 ; agent: Candida albicans ; strain or isolate: URM 4126 ; method: broth dilution ; endpoint: inhibition ; tested at: 2048 µg/mL ; result: 0%

Repeating the final 5 entries:

CC(C)(O)c1cn(-c2ccc3ccccc3c2)nn1 ; agent: Candida parapsilosis ; strain or isolate: URM 4804 ; method: broth dilution ; endpoint: inhibition ; tested at: 2048 µg/mL ; result: 0%
OC[C@H]1O[C@@H](n2c(Cl)nc3cc(Cl)c(Cl)cc32)[C@H](O)[C@@H]1O ; agent: Human cytomegalovirus ; strain or isolate: TOWNE ; method: plaque count ; endpoint: EC50 ; result: 2.4 µM
Cn1cc(C(=O)NCc2ccc(Cl)cc2)c(=O)c2cc(CN3CCOCC3)ccc21 ; agent: Varicella zoster virus ; strain or isolate: SM varicella isolate ; cell line: HFF ; method: plaque count ; endpoint: inhibition ; tested at: 2.4 µM ; result: 90%
CCOC(=O)c1cnc(NCCCCNc2ccnc3cc(Cl)ccc23)nc1C ; agent: Cryptococcus gattii ; strain or isolate: 135L/03 ; endpoint: MIC99 ; result: 8 µg/mL
CC(C)(O)c1cn(-c2ccc([N+](=O)[O-])cc2)nn1 ; agent: Candida albicans ; strain or isolate: URM 4126 ; method: broth dilution ; endpoint: inhibition ; tested at: 2048 µg/mL ; result: 0%

Fold resistance: result on the changed form divided by that on wild type. MIC50, MIC90 and the like: level of inhibition, or share of isolates inhibited. ECn is the concentration giving n% inhibition of infection, replication or growth. Two numbers with a dash give a range or band. Inhibition is in % at the dose shown (toxicity tests: loss of growth or viability).